Results: patent US20250313900A1, “COMPOSITIONS AND THERAPEUTIC AGENTS FOR MODULATING INFLAMMATORY RESPONSES ON BOTH TUMOR AND IMMUNE CELLS” (THE METHODIST HOSPITAL, priority 2022, published 2025)

Protein sequences, listed by entry. Tags and fused reporters are not part of them. Lines headed by an entry give the natural chain unless they say otherwise; changes in a name come on top.
UniProt Q8CJ61: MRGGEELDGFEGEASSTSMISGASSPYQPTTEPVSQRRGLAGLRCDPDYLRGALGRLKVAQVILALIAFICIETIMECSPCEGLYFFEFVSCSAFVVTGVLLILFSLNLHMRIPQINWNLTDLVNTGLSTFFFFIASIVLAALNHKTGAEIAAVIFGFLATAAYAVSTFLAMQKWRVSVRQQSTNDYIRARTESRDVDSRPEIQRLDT

Tests used:
G-CSF = experiment: Inhibition of EGF-mediated G-CSF secretion from tumor cells; format: cell-based
MHC II = MHC II assay by high-throughput flow cytometry (compound screening); format: cell-based
CMTM4 [1] = experiment: Western blot of CMTM4 protein in HCC827 CT cells; format: cell-based, human; conditions: 1 μM
CMTM4 [2] = molecular target: CMTM4 (Mus musculus, UniProt Q8CJ61); experiment: CMTM4 level (compound screening); format: cell-based
[3] = test system: NF-kB promoter activity in LLC cells; experiment: NF-kB promoter activity, CMTM4-expressing NF-kB/SEAP reporter stable LLC cells; format: cell-based, murine
glycolysis = experiment: Test glycolysis (compound screening); format: cell-based
p-Akt/p-mTOR = p-Akt/p-mTOR (compound screening); format: cell-based
IL-6 = IL-6 production (compound screening); format: cell-based
[4] = test system: NF-kB promoter activity in 4T1 cells; experiment: NF-kB promoter activity, CMTM4-expressing NF-kB/SEAP reporter stable 4T1 cells; format: cell-based, murine; conditions: 4T1 reporter cells

5-Methoxysterigmatocysin
G-CSF (%) (G-CSF): 1.533% | MHC II (%) (MHC II): 341.5%

Swazine
G-CSF (%) (G-CSF): 2.692% | CMTM4 protein expression (CMTM4 [1]): decreased | CMTM4 (CMTM4 [2]): No difference | NF-kB (%)-LLC [3]: 46.39% | Glycolysis (glycolysis): Inhibit | MHC II (%) (MHC II): 304.8% | p-Akt/p-mTOR (p-Akt/p-mTOR): Decrease | IL-6 (%) (IL-6): −6.7679% | NF-kB (%)-4T1 [4]: 50.81%
